Measured values from several laboratories, pooled; numbers as filed in NIAID ChemDB.

Shared fields: growth or infection tests; agent: Coxsackie virus; cell line: HeLa; measure: EC50

ECn: concentration that inhibits the pathogen or its effect by n%. Two numbers with a dash give a range or band. An empty or dashed field is not shown. Conditions beyond the fields shown may differ between rows.

SMILES,strain or isolate,method,value
CC[C@H](O)C1=C[C@@H](n2cnc3c(N)ncnc32)[C@H](O)[C@@H]1O,TYPE B4,cytopathic effect,>100 µg/mL
COCc1ccc(CCCOc2cc(C)c(-c3noc(C(F)(F)F)n3)c(C)c2)nn1,-,cytopathic effect,0.033–0.659 µg/mL
CC1(CO)CCC(Cn2cnc3c(Cl)nc(N)nc32)C1(C)C,TYPE B4,cytopathic effect,200 µg/mL
NN1CC[N+]2(CC1)CC[N+]1(CCN(N)CC1)CC2,B3,cytopathic effect,>70 µg/mL
CS(=O)(=O)c1ccc(Cc2ccc(Br)cc2)nc1,TYPE A21,cytopathic effect,5 µg/mL
N#Cc1cncc([C@H]2O[C@H](CO)[C@@H](O)[C@@H]2O)c1,TYPE B4,cytopathic effect,≥100 µg/mL
Cc1ccn2c(C3OCCS3)cnc2c1,TYPE B4,-,>1000 µM
C=C(N=CC)c1nc(-c2ccc(C)cc2)n([C@@H]2O[C@H](CO)[C@@H](O)[C@H]2O)n1,TYPE B4,cytopathic effect,>40 µg/mL
NC(=S)c1cncc([C@H]2O[C@H](CO)[C@@H](O)[C@@H]2O)c1,TYPE B4,cytopathic effect,≥100 µg/mL
Nc1ccn([C@@H]2C[C@H](CO)[C@@H](O)[C@H]2O)c(=O)n1,TYPE B4,cytopathic effect,>400 µg/mL
Nc1ncnc2c1ncn2[C@H]1C[C@@H](CO)[C@H](O)[C@@H]1O,TYPE B4,cytopathic effect,>400 µg/mL
C1C[N+]2(CCN1)CC[N+]1(CCNCC1)CC2,B3,cytopathic effect,>70 µg/mL
CC1(CO)CCC(Cn2nnc3c(N)nc(N)nc32)C1(C)C,TYPE B4,cytopathic effect,300 µg/mL
COc1ccc(OCc2ccc(COc3c(Cl)cccc3Cl)cc2)c(Cl)c1,GROUP A9,cytopathic effect,0.09 µg/mL
Cc1ccn2c(C3OCCO3)cnc2c1,TYPE B4,-,>1000 µM
CCOC(=O)Sc1nnc(-c2cn(-c3ccccc3)nc2-c2ccccc2)n1N,TYPE B4,cytopathic effect,>80 µg/mL
Cc1nc(Cl)c([N+](=O)[O-])c(N2CC[N+]3(CC2)CC[N+]2(CCN(c4nc(C)nc(Cl)c4[N+](=O)[O-])CC2)CC3)n1,B3,cytopathic effect,>70 µg/mL
CC(=O)OCCOCN1C=C(C#N)C(N)=NS1(=O)=O,TYPE B4,-,>400 µg/mL
CC1(C)[C@@H](CO)CC[C@@]1(C)Cn1nnc2c(N)ncnc21,TYPE B4,cytopathic effect,>400 µg/mL
OC[C@H]1O[C@H](c2cncc(Br)c2)[C@@H](O)[C@@H]1O,TYPE B4,cytopathic effect,≥100 µg/mL
CCOC(=O)C1=CN(COCCO)S(=O)(=O)NC1=O,TYPE B4,-,>400 µg/mL
CC1(CO)CCC(Cn2nnc3c(N)ncnc32)C1(C)C,TYPE B4,cytopathic effect,>40 µg/mL
CC(=O)Nn1c(-c2cn(-c3ccccc3)nc2-c2ccccc2)n[nH]c1=S,TYPE B4,cytopathic effect,>80 µg/mL
Cc1nc(N2CCCC2)c([N+](=O)[O-])c(N2CC[N+]3(CC2)CC[N+]2(CCN(c4nc(C)nc(N5CCCC5)c4[N+](=O)[O-])CC2)CC3)n1,B3,cytopathic effect,>70 µg/mL
COc1ccc(OCCCCCCn2ccnc2)c(Cl)c1,TYPE A,plaque count,14.5 µM
CS(=O)(=O)c1ccc(NCc2ccc(Cl)c(Cl)c2)nc1,TYPE A21,cytopathic effect,0.6 µg/mL
CS(=O)(=O)c1ccc(Oc2ccc(Cl)c(Cl)c2)c([N+](=O)[O-])c1,TYPE A21,cytopathic effect,267 µM
C1CN(CC2CO2)CC[N+]2(C1)CC[N+]1(CCCN(CC3CO3)CC1)CC2,B3,cytopathic effect,>70 µg/mL
CSc1ccc(CCCOc2cc(C)c(-c3noc(C(F)F)n3)c(C)c2)nn1,-,cytopathic effect,0.033–0.659 µg/mL
CC=NC(=N)c1nc(-c2cccc(OC)c2)n(Cc2ccccc2)n1,TYPE B4,cytopathic effect,>10 µg/mL
S=c1[nH]nc(-c2cn(-c3ccccc3)nc2-c2ccccc2)o1,TYPE B4,cytopathic effect,48 µg/mL
Nc1c(N2CC[N+]3(CC2)CC[N+]2(CCN(c4nc[nH]c(=O)c4N)CC2)CC3)nc[nH]c1=O,B3,cytopathic effect,>70 µg/mL
Nc1ccn(C(CF)CCCO)c(=O)n1,TYPE B4,cytopathic effect,>400 µg/mL
C=C[C@H](O)C1=C[C@@H](n2cnc3c(N)ncnc32)[C@H](O)[C@@H]1O,TYPE B4,cytopathic effect,>100 µg/mL
CC1(C)[C@@H](CO)CC[C@@]1(C)Cn1cc(I)c(=O)[nH]c1=O,TYPE B4,cytopathic effect,>400 µg/mL
CC1(CO)CCC(Cn2nnc3c(Cl)nc(N)nc32)C1(C)C,TYPE B4,cytopathic effect,>400 µg/mL
Nc1ncnc2c1ncn2[C@@H]1O[C@H](CO)[C@@H](F)[C@H]1O,TYPE B4,cytopathic effect,2 µg/mL
Cc1cn([C@H]2OC[C@@H](CO)C2F)c(=O)[nH]c1=O,TYPE B4,cytopathic effect,>80 µg/mL
N#CC1=CN(COCCO)S(=O)(=O)N=C1N,TYPE B4,-,>400 µg/mL
Cc1cc(Oc2ccc(Cl)c(Cl)c2)ccc1S(C)(=O)=O,TYPE A21,cytopathic effect,151 µM
CC=NC(=N)c1nc(-c2cccc(C)c2)n(COCCO)n1,TYPE B4,cytopathic effect,>200 µg/mL
CCS(=O)(=O)c1ccc(NCc2ccc(Cl)cc2)nc1C#N,TYPE A21,cytopathic effect,1.6 µg/mL
Nc1ncnc2c1ncn2[C@H]1OC[C@@H](CO)C1O,TYPE B4,cytopathic effect,>80 µg/mL
CS(=O)(=O)c1ccc(Cc2ccc(N)cc2)nc1,TYPE A21,cytopathic effect,>10 µg/mL
CC1(C)[C@@H](CCO)C[C@H]1n1cnc2c(N)nc(N)nc21,TYPE B4,cytopathic effect,100 µg/mL
COc1cc(Cc2cnc(-n3c(-c4ccccc4)nc4ccc(Br)cc4c3=O)nc2N)cc(OC)c1OC,TYPE B4,cytopathic effect,>16 µg/mL
CS(=O)(=O)c1ccc(Cc2ccc(Cl)cc2)nc1,TYPE A21,cytopathic effect,2.5 µg/mL
CC1(C)[C@@H](CCO)C[C@H]1n1nnc2c(Cl)nc(N)nc21,TYPE B4,cytopathic effect,>200 µg/mL
NC1=CC(N)=NS(=O)(=O)N1COCCO,TYPE B4,-,>400 µg/mL
C=C(N=CC)c1nc(-c2ccccc2)n([C@@H]2O[C@H](CO)[C@@H](O)[C@H]2O)n1,TYPE B4,cytopathic effect,>200 µg/mL
CS(=O)(=O)c1ccc(NCc2ccc(Cl)cc2)nc1,TYPE A21,cytopathic effect,1.6 µg/mL
Cc1cn([C@@H]2OC[C@H](CO)[C@H]2O)c(=O)[nH]c1=O,TYPE B4,cytopathic effect,>80 µg/mL
[N-]=[N+]=N[C@H]1[C@@H](F)[C@H](n2cnc3c(N)ncnc32)O[C@@H]1CO,TYPE B4,cytopathic effect,300 µg/mL
Cc1cnnc(CCCOc2cc(C)c(-c3noc(C)n3)c(C)c2)c1,-,cytopathic effect,0.033–0.659 µg/mL
CC1(CO)CCC(Cn2ccc(=O)[nH]c2=O)C1(C)C,TYPE B4,cytopathic effect,>200 µg/mL
CCc1nc(-n2c(-c3ccccc3)nc3ccc(Br)cc3c2=O)nc(N)c1-c1ccc(Cl)cc1,TYPE B4,cytopathic effect,>16 µg/mL
CC(=O)OCCOCN1C(C)=CC(N)=[N+](c2ccccc2)S1(=O)=O,TYPE B4,-,>400 µg/mL
Cc1ccc(CCCOc2c(C)cc(-c3noc(C(F)F)n3)cc2C)nn1,-,cytopathic effect,0.033–0.659 µg/mL
OC[C@H]1O[C@H](c2cncc(Br)c2)[C@@H](O)[C@H]1O,TYPE B4,cytopathic effect,≥100 µg/mL
Cc1cccn2c(C3OCCS3)cnc12,TYPE B4,-,>1000 µM
N#Cc1cc([N+](=O)[O-])ccc1Oc1ccc(Cl)c(Cl)c1,TYPE B4,cytopathic effect,1.5 µg/mL
Cc1cn([C@H]2C/C(=N\O)[C@@H](CO)O2)c(=O)[nH]c1=O,-,cytopathic effect,>200 µg/mL
Nc1nc2c(ccn2[C@H]2CO[C@@H](CO)C2)c(=O)[nH]1,TYPE B4,cytopathic effect,>400 µg/mL
NC(=O)c1cncc([C@H]2O[C@H](CO)[C@H](O)[C@@H]2O)c1,TYPE B4,cytopathic effect,≥100 µg/mL
CCc1nc(-n2c(C)nc3ccc(Br)cc3c2=O)nc(N)c1-c1ccc(Cl)cc1,TYPE B4,cytopathic effect,>16 µg/mL
Cc1nn2c(-c3cn(-c4ccccc4)nc3-c3ccccc3)nnc2s1,TYPE B4,cytopathic effect,>16 µg/mL
Nc1ncnc2c1ncn2[C@@H]1C[C@H](COP(=O)(O)O)[C@@H](O)[C@H]1O,TYPE B4,cytopathic effect,>400 µg/mL
OC[C@H]1O[C@@H](c2cncc(Br)c2)[C@@H](O)[C@@H]1O,TYPE B4,cytopathic effect,≥100 µg/mL
CCS(=O)(=O)c1ccc(NCc2ccc(Cl)c(Cl)c2)nc1,TYPE A21,cytopathic effect,>10 µg/mL
O=c1[nH]n2c(-c3cn(-c4ccccc4)nc3-c3ccccc3)nnc2s1,TYPE B4,cytopathic effect,48 µg/mL
CC1(C)[C@@H](CCO)C[C@H]1n1nnc2c(N)nc(N)nc21,TYPE B4,cytopathic effect,200 µg/mL
CC1(CO)CCC(Cn2cnc3c(=O)[nH]cnc32)C1(C)C,TYPE B4,cytopathic effect,>100 µg/mL
Nc1nc2c(ncn2[C@H]2CO[C@@H](CO)C2)c(=O)[nH]1,TYPE B4,cytopathic effect,>200 µg/mL
Cc1cn(CCCC(O)CF)c(=O)[nH]c1=O,TYPE B4,cytopathic effect,>400 µg/mL
CCOC(=O)CSc1nnc(-c2cn(-c3ccccc3)nc2-c2ccccc2)n1N,TYPE B4,cytopathic effect,>16 µg/mL
Cc1cc(OCCCc2ccc(CO)nn2)cc(C)c1-c1noc(C(F)(F)F)n1,-,cytopathic effect,0.033–0.659 µg/mL
NC(=O)c1cncc([C@@H]2O[C@H](CO)[C@@H](O)[C@@H]2O)c1,TYPE B4,cytopathic effect,≥100 µg/mL
Cc1nc(N2CC[N+]3(CC2)CC[N+]2(CCNCC2)CC3)c([N+](=O)[O-])c(N2CC[N+]3(CC2)CC[N+]2(CCNCC2)CC3)n1,B3,cytopathic effect,>70 µg/mL
CC1(C)[C@@H](CO)CC[C@@]1(C)Cn1cnc2c(Cl)ncnc21,TYPE B4,cytopathic effect,>400 µg/mL